Pooled drug test results. Numbers come from NIAID ChemDB, via PubChem.

All rows: tests in culture; organism: HIV-1

ECn: concentration that inhibits the pathogen or its effect by n%.

structure,endpoint,strain,mutations,method,cell line,setting,value
CCOC(=O)C(O)(c1c[nH]c2ccc(Cl)cc12)C(F)(F)F,EC50,IIIB,,,TZM-bl,,0.249 µM
CC(C)(C)NC(=O)[C@@H]1CSCN1C(=O)[C@@H](O)[C@H](Cc1ccccc1)NC(=O)[C@H](CCC(F)(F)F)NC(=O)COc1cccc2cnccc12,EC50,IIIB,,cytopathic effect / MTT,MT-4,,0.03 µg/mL
Cn1cc(C(=O)O)c(=O)c2cc(F)c(N3CC=C(c4ccccc4)CC3)c(C(F)(F)F)c21,EC50,IIIB,,cytopathic effect / MTT,MOLT-4,,0.05 µM
CC(C)c1ccccc1SC1=C(O)CC(CCc2ccccc2)(c2ccccc2)OC1=O,EC50,IIIB,,p24,H9,,69 µM
Nc1ncnc2c1ncn2CCOCP(=O)(O)O,EC50,,,syncytia,CEM/AK- + CEM,,7 µM
CCCCc1ccc2c(c1)SC(=N)N1CCCN=C21,EC50,IIIB,,MTT,MT-4,,5.9 µM
N#Cc1ccc(Nc2nccc(Oc3ccc(C(=O)CC(=O)C(=O)O)cc3)n2)cc1,EC50,IIIB,L100I,MTT,MT-4,,>48 µM
Cc1ccnc2c1NC(=O)c1cccnc1N2C1CC1,EC50,NL4-3,,luciferase,ACH2 + TZM-bl,,0.03153 µM
C#C[C@]1(CO)O[C@@H](n2cnc3c(N)nc(F)nc32)C[C@@H]1OC(=O)C1CCC(C(C)(C)C)CC1,EC50,NL4-3,,luminescence,U373-CD4-CXCR4,pseudotyped,0.0026 µM
Cc1cn([C@H]2C[C@H](N=[N+]=[N-])[C@@H](CO)O2)c(=O)[nH]c1=O,EC50,NL432,,cytopathic effect / trypan blue,MT-4,,0.003 µM
CC(C)=CCOc1cc(NC(=S)c2ccoc2C)ccc1Cl,EC50,NL4-3,(36G)V38A,luminescence,TZM-bl,,>2000 µM
CSc1nc2c(c(=O)[nH]1)C(c1ccc([N+](=O)[O-])cc1)c1c(nc(SC)[nH]c1=O)O2,EC50,IIIB,,cytopathic effect,MT-4,,>188.9 µM
CCOC(=O)C(O)(c1c[nH]c2ccc(C#N)cc12)C(F)(F)F,EC50,IIIB,,,TZM-bl,,0.445 µM
C[C@H](Cn1cnc2c(N)ncnc21)OCP(=O)(O)O,EC50,IIIB,,XTT / p24,PBMC,7 d,0.18 µM
CC(c1cc(=O)[nH]c(SCC(=O)c2ccccc2)n1)C1CCCCC1,EC50,IIIB,,MTT,MT-4,,2.17 µM
ClC1c2nnc(-c3ccccc3)n2-c2ccccc2-n2c(-c3ccccc3)nnc21,EC50,IIIB,,cytopathic effect / MTT,MT-4,,>3 µM
C#C[C@]1(CO)O[C@@H](n2cnc3c(NC(=O)CCC)nc(F)nc32)C[C@@H]1OC(=O)CCC,EC50,NL4-3,,luminescence,U373-CD4-CXCR4,pseudotyped,0.102 µM
CCOC(=O)C(O)(c1c(C)[nH]c2ccccc12)C(F)(F)F,EC50,IIIB,,,TZM-bl,,16.3 µM
CCc1cc(NCc2nc3ccccc3o2)c(=O)[nH]c1C,EC95,rHXB2,,p24,MT-4,,0.2 µM
CCc1c(CCC2CCCCC2)nc(SCC(=O)c2ccc(F)cc2)[nH]c1=O,EC50,IIIB,,MTT,MT-4,,0.14 µM
COC(=O)N1CCC2(CC1)CN=C1c3ccc(Br)cc3SC(=N)N1C2,EC50,IIIB,,MTT,MT-4,,4.6 µM
CCOC(=O)C(O)(c1c[nH]c2cccc(O)c12)C(F)(F)F,EC50,IIIB,,,TZM-bl,,>96.2 µM
CCc1c(C(C)CC2CCCCC2)nc(SCC(=O)c2ccc(OC)cc2)[nH]c1=O,EC50,IIIB,,MTT,MT-4,,0.07 µM
COC(=O)c1cccc2[nH]cc(C(O)(C(=O)OC)C(F)(F)F)c12,EC50,IIIB,,,TZM-bl,,>96.2 µM
c1ccc(-c2nnc3n2-c2ccccc2-n2c(-c4ccccc4)nnc2C3N2CCOCC2)cc1,EC50,IIIB,,cytopathic effect / MTT,MT-4,,>32 µM
C#C[C@]1(CO)O[C@@H](n2cnc3c(N)nc(F)nc32)C[C@@H]1OC(=O)CCC,EC50,NL4-3,,luminescence,U373-CD4-CXCR4,pseudotyped,0.0277 µM
O=c1ccc2ccc(O)c(CN3CCN(Cc4c(O)ccc5ccc(=O)oc45)CC3)c2o1,EC50,,,MTT,MT-4,,>20 µM
Cc1c(C(C)CC2CCCCC2)nc(SCC(=O)c2ccc(O)cc2)[nH]c1=O,EC50,IIIB,,MTT,MT-4,,0.13 µM
CC(=O)Oc1ccc2ccccc2c1Cc1c(C)[nH]c2ccccc12,EC50,,,MTT,MT-4,,27 µM
Cc1cn([C@H]2C[C@H](F)[C@@H]([C@@H](C)O)O2)c(=O)[nH]c1=O,EC50,IIIB,,syncytia,CEM,,8.5 ± 2.1 µg/mL
COc1ccc2[nH]cc(Cc3c(OC(C)=O)ccc4ccccc34)c2c1,EC50,,,MTT,MT-4,,5 µM
CCOC(=O)C(O)(c1c[nH]c2ccccc12)C(F)(F)F,EC50,IIIB,,,TZM-bl,,2.994 µM
O=c1c2ccccc2n2nnc3ccc(NCCCN4CCN(CCCNc5ccc6nnn7c8ccccc8c(=O)c5c67)CC4)c1c32,EC50,RF,,cytopathic effect / XTT,CEM + CEM-SS,,0.0011 µM
CCc1cc(NCc2nc3c(Cl)ccc(Cl)c3o2)c(=O)[nH]c1C,EC50,MN,,p24,MT-4,,0.05 µM
C#C[C@]1(CO)O[C@@H](n2cnc3c(N)nc(F)nc32)C[C@@H]1OC(=O)CCCCCC,EC50,NL4-3,,luminescence,U373-CD4-CXCR4,pseudotyped,0.0041 µM
Cc1c(O)cc(F)cc1C(=O)N[C@@H](Cc1ccc2ccccc2c1)[C@H](O)C(=O)N1C[C@@H](Cl)C[C@H]1C(=O)NC(C)(C)C,EC50,IIIB,,p24,CEM,,<0.031 µM
CC(C)(C)NC(=O)[C@@H]1CSCN1C(=O)[C@@H](O)[C@H](Cc1ccccc1)NC(=O)[C@H](CC(F)(F)F)NC(=O)COc1cccc2cnccc12,EC50,IIIB,,cytopathic effect / MTT,MT-4,,0.008 µg/mL
CC1c2nnc(Cc3ccccc3)n2-c2ccccc2-n2c(Cc3ccccc3)nnc21,EC50,IIIB,,cytopathic effect / MTT,MT-4,,>200 µM
Cc1cn([C@H]2C[C@H](N=[N+]=[N-])[C@@H](CO)O2)c(=O)[nH]c1=O,EC50,Primary clinical isolate Rome,,p24,PBMC/HIV-1 + PBMC,,<3.7 µM
COc1nc(=O)[nH]c2c1C(c1ccc([N+](=O)[O-])cc1)c1c(OC)nc(=O)[nH]c1O2,EC50,IIIB,,cytopathic effect,MT-4,,>313 µM
Cc1ccc2c(c1)SC(=N)N1CCCN=C21,EC50,IIIB,,MTT,MT-4,,5.1 µM
Cc1ccc(C[C@H](NC(=O)c2cccc(O)c2C)[C@H](O)C(=O)N2C[C@@H](Cl)C[C@H]2C(=O)NC(C)(C)C)cc1C,EC90,IIIB,,p24,CEM,,0.051 µM
CCc1c(CCC2CCCCC2)nc(SCC(=O)c2ccc(O)cc2)[nH]c1=O,EC50,IIIB,,MTT,MT-4,,0.05 µM
CCc1cc(NCc2nc3c(C)ccc(C)c3o2)c(=O)[nH]c1C,EC50,rA17,,p24,MT-4,,<100 µM
Cc1ccnc2c1NC(=O)c1cccnc1N2C1CC1,EC50,NL4-3,RT A62V 69SS K70R E79K V118I M184V E203K L210W T215Y,cytopathic effect,MT-4,,0.01 µM
CC(C)=CCN1Cc2cccc3[nH]c(=S)n(c23)C[C@@H]1C,EC95,rHXB2,,p24,MT-4,,0.1 µM
CC(C)=CCOc1cc(NC(=S)c2ccoc2C)ccc1Cl,EC95,IIIB,,p24,MT-2,,0.03568 µg/mL
COc1ccc2c(Cc3c[nH]c4ccc(OC)cc34)c(OC(C)=O)ccc2c1,EC50,,,MTT,MT-4,,28 µM
Cc1ccnc2c1NC(=O)c1cccnc1N2C1CC1,EC50,NNRTI-resistant (RT K103N G190A),RT-K103N G190A,β-galactosidase,MAGI,,>10 µM
CCc1nnc2n1-c1ccccc1-n1c(CC)nnc1C2,EC50,IIIB,,cytopathic effect / MTT,MT-4,,>200 µM
CC(C)CC(SCc1ccccc1)c1c(O)cc(-c2ccccc2)oc1=O,EC50,IIIB,,p24,H9,,28 µM
Cc1nnc(C(=O)NC(C)(C)c2nc(C(=O)NCc3ccc(F)cc3)c(O)c(=O)n2C)o1,EC50,NL4-3,,luciferase,ACH2 + TZM-bl,,0.00018 µM
COC(=O)c1cccc(-c2ccc3c(c2)SC(=N)N2CCCN=C32)c1,EC50,IIIB,,MTT,MT-4,,1.5 µM
CCOC(=O)C(=O)CC(=O)c1ccc(Oc2ccnc(Nc3ccc(C#N)cc3)n2)cc1,EC50,IIIB,L100I,MTT,MT-4,,>22 µM
Oc1ccc2ccccc2c1CN1CCN(Cc2c(O)ccc3ccccc23)CC1,EC50,,,MTT,MT-4,,>100 µM
C#C[C@]1(CO)O[C@@H](n2cnc3c(N)nc(F)nc32)C[C@@H]1OC(=O)C(C)CCCCC,EC50,NL4-3,,luminescence,U373-CD4-CXCR4,pseudotyped,0.0029 µM
Cc1c(O)cccc1C(=O)N[C@@H](Cc1ccccc1)[C@H](O)C(=O)N1C[C@@H](Cl)C[C@H]1C(=O)NC(C)(C)C,EC90,IIIB,,p24,CEM,,0.11 µM
CCN(C)C(=O)Oc1nsnc1-c1c(Cl)cccc1Cl,EC50,IIIB,,MTT,MT-4,,0.037 µM
C#C[C@]1(CO)O[C@@H](n2cnc3c(N)nc(F)nc32)C[C@@H]1OC(C)=O,EC50,NL4-3,,luminescence,U373-CD4-CXCR4,pseudotyped,0.1055 µM
Nc1ccn([C@H]2CC[C@@H](CO)O2)c(=O)n1,EC50,IIIB,,syncytia,CEM,,0.04 µg/mL
Cc1cn([C@H]2C[C@H](N=[N+]=[N-])[C@@H](CO)O2)c(=O)[nH]c1=O,EC50,,Didanosine-resistant (RT L74V),,MT-4,,0.002 µM
N#Cc1ccc(Nc2nc(Cc3c(Cl)cccc3Cl)nc(NO)n2)cc1,EC50,LAI WT,,cytopathic effect / MTT,MT-4,,0.002 µM
C#C[C@]1(COC(=O)OCC)O[C@@H](n2cnc3c(N)nc(F)nc32)C[C@@H]1OC(=O)CCCCCCCCCCCCCCCCC,EC50,NL4-3,,luminescence,U373-CD4-CXCR4,pseudotyped,1.266 µM
CCCCCCCSc1nsc(NC(=O)Nc2ccccc2)n1,EC50,NL4-3,RT-K103N Y181C,cytopathic effect,MT-4,,33.5 µM
Oc1ccc2cc(Br)ccc2c1CN1CCN(Cc2c(O)ccc3cc(Br)ccc23)CC1,EC50,,,MTT,MT-4,,>100 µM
CCOC(=O)C(O)(c1c[nH]c2ccc([N+](=O)[O-])cc12)C(F)(F)F,EC50,IIIB,,,TZM-bl,,0.045 µM
CCO/N=C(\c1ccc(Br)cc1)C1CCN(C2(C)CCN(C(=O)c3c(C)cc[n+]([O-])c3C)CC2)CC1,EC50,R5-19 (PR D30N RT M184V) R5 clinical isolate,PR-D30N RT-M184V,p24,PBMC,,0.0309 µM
Cc1c(O)cccc1C(=O)N[C@@H](CSc1ccccc1)[C@H](O)CN1C[C@H]2CCCC[C@H]2C[C@H]1C(=O)NC(C)(C)CO,EC50,RF,,cytopathic effect / MTT,CEM + CEM-SS,,0.0342 µM
COc1ccc(C(=O)CSc2nc(C(C)CC3CCCCC3)c(C)c(=O)[nH]2)cc1,EC50,IIIB,,MTT,MT-4,,0.93 µM
COc1ccc2ccc(OC(C)=O)c(Cc3c[nH]c4ccc(OC)cc34)c2c1,EC50,,,MTT,MT-4,,19 µM
Cc1cc(O)c(C)c(C(=O)N[C@@H](Cc2ccc(-c3ccccc3)cc2)[C@H](O)C(=O)N2C[C@@H](Cl)C[C@H]2C(=O)NC(C)(C)C)c1,EC90,IIIB,,p24,CEM,,0.048 µM
CCOC(=O)C(=O)CC(=O)c1cccc(Oc2ccnc(Nc3ccc(C#N)cc3)n2)c1,EC50,RES056,,MTT,MT-4,,>14 µM

For reference, 9 entries again:

structure,endpoint,strain,mutations,method,cell line,setting,value
CC(C)=CCOc1cc(NC(=S)c2ccoc2C)ccc1Cl,EC50,NL4-3,(36G)V38A,luminescence,TZM-bl,,>2000 µM
Nc1ccn([C@H]2CC[C@@H](CO)O2)c(=O)n1,EC50,IIIB,,syncytia,CEM,,0.04 µg/mL
Cc1cn([C@H]2C[C@H](N=[N+]=[N-])[C@@H](CO)O2)c(=O)[nH]c1=O,EC50,Primary clinical isolate Rome,,p24,PBMC/HIV-1 + PBMC,,<3.7 µM
COc1ccc2ccc(OC(C)=O)c(Cc3c[nH]c4ccc(OC)cc34)c2c1,EC50,,,MTT,MT-4,,19 µM
CC(=O)Oc1ccc2ccccc2c1Cc1c(C)[nH]c2ccccc12,EC50,,,MTT,MT-4,,27 µM
CCOC(=O)C(=O)CC(=O)c1ccc(Oc2ccnc(Nc3ccc(C#N)cc3)n2)cc1,EC50,IIIB,L100I,MTT,MT-4,,>22 µM
CCO/N=C(\c1ccc(Br)cc1)C1CCN(C2(C)CCN(C(=O)c3c(C)cc[n+]([O-])c3C)CC2)CC1,EC50,R5-19 (PR D30N RT M184V) R5 clinical isolate,PR-D30N RT-M184V,p24,PBMC,,0.0309 µM
Oc1ccc2cc(Br)ccc2c1CN1CCN(Cc2c(O)ccc3cc(Br)ccc23)CC1,EC50,,,MTT,MT-4,,>100 µM
CCOC(=O)C(O)(c1c[nH]c2ccc(Cl)cc12)C(F)(F)F,EC50,IIIB,,,TZM-bl,,0.249 µM

An empty or dashed field is not shown. Neighbouring rows are from separate reports.